Earlier results, collected in publication PMC10818719 (Viruses, 2023).

Tested on: bovine viral diarrhea virus (BVDV)
Details: cited from earlier work

Substance | antiviral activity with PDI toward BVDV
tetra-methylpyridyloxy-substituted Ga phthalocyanine [Ga4] | remarkable PDI
octa-methylpyridyloxy-substituted Ga phthalocyanine [Ga8] | Virucidal and irradiation effects
